Measured values taken from the supplement of paper PMC9931576.
Human monoclonal antibodies against the spike receptor-binding domain (heavy:light variable regions). IC50 against pseudoviruses bearing the spike of naturally observed variants; lower = stronger; >10 µg/ml means not reached at the top dose. No active / inactive call. The stated detection limit is 0.0005 µg/ml; values near or below 0.001 µg/ml lie at the floor of the assay.

B1: BD57-0107 (protein)
chain 1: QVQLVQSGAELKKPGSSVKVSCKASGGSFNTYFITWVRQAPGQGLEWLGRILPRLGAVNYAQRFQGRVTITADDATRTAYMELSGLRSEDTAVYFCAREVGYSDSGSVSYFDPWGQGTLVTVSS
chain 2: QSVLTQPPSVSGAPGQRVTISCTGTNSNIGAGYDVHWYQQLPGTAPRLLIYANSNRPSGVPDRFSGSKSGTSASLAITGLQAEDEADYYCQSYDSSLSGSIFGGGTKVTVL
B2: BD57-0109 (protein)
chain 1: EVQLVQSGAEVKKPGESLKISCKASGYSFSNYWIGWVRQRPGKGLEWMGVIYPGDSDTRYSPSFQGQVTISADKSINTAYLQWGSLKASDTAMYYCAKPFGYSGYDPEYSYDMDVWGQGTTVTVSS
chain 2: QSALTQPASVSGSPGQSITISCTGANTDVGSYNLVSWYQQHPGKAPKLIIYEGSERPSGVSNRFSGSKSGNTASLTISGLQAEDEADYYCCSYPGSSISVFGGGTKLTVL
B3: BD57-0110 (protein)
chain 1: QVQLQESGPGLVKPSETLSLTCSVSGGSISRSSYYWVWIRQPPGKGLEWIGSIYHSGSTYYNPSLKSRVTISVDTSKNQFSLKLTSVTAADTAMYYCARDWSLYGGEKFDYWGQGILVTVSS
chain 2: IVLTQSPATLSLSPGERATLSCRASQSVSSYLAWYQQKPGQAPRLLIYDASNRATGIPARFSGSGSGTDFTLTISSLEPEDFAVYYCQQRSNWPEITFGPGTKVDVK
B4: BD57-0113 (protein)
chain 1: EVQLVESGGGLVQPGRSLRLSCAASGFTFDDYAMHWVRQAPGKGLEWVSGISWNSGDIAYSDSVKGRFTISRDNAKNSLYLQMNSLRAEDTALYYCAKAPLGELPTGPFDYWGQGTRVTVSS
chain 2: QSVLTQPPSASGTPGQRVTISCSGSSSNIGTYTINWYQHLPGTAPRLLIYSNNHRPSGVPDRFSGSKSGTSASLAISGLQSEDEADYYCVAWDDSLNGWVFGGGTKLTVL
B5: BD57-0118 (protein)
chain 1: QITLKESGPTLVKPTQTLTLTCTFSGFSLTTSGEGVGWIRQPPGKAPEWLALIYWNDDKHYRPSLKSRLTITKDTSKNQVVLRMTNMDPVDTATYNCAHSYYYDSRGYSFDFWGQGTLVTVSS
chain 2: DIQMTQSPSSVSASVGDRVTITCRASQNIISWLAWYQQKPGKAPKLLIYAASSLQSGVPSRFSGSGSGTDFTLTISSLQPEDFATYYCQQANNFPITFGQGTRLDIK
B6: BD57-0120 (protein)
chain 1: EVQLVESGGGLVQPGGSLRLSCAASGFTFSNYDLHWLRQETGKSLEWVSLIGTAGDTYYADSVKGRFTISRQNAKNSLDLQMDSLRVEDTAVYYCARVSHIVVGGPGQRTNFHYYLDVWGKGTTVTVSS
chain 2: DIQMTQSPSSLSASVGDRVTITCRASQSISSHLNWYQQKPGKAPKLLMYAASNLQSGVPSRFSGTGFGTEFTLTISSLQPEDFAIYYCQQTYTSPSYTFGQGTKLEIK

Target: SARS-CoV-2 Omicron BA.1 spike pseudovirus
Assay: pseudovirus neutralization IC50; higher = weaker neutralization
Description: (§1)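 Single-round VSV luciferase pseudovirus mixed with antibody dilutions for 1 h and put on Huh-7 cells for about a day; IC50 from the dose curve.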

Binder | pseudovirus neutralization IC50 [µg/mL]
B1 | 0.217
B2 | 0.594
B3 | > 10
B4 | 6.27
B5 | 1.03
B6 | 2.28

Target: SARS-CoV-2 Omicron BA.2 spike pseudovirus
Assay: as above
Description: as §1

Binder | pseudovirus neutralization IC50 [µg/mL]
B1 | 0.143
B2 | 0.629
B3 | > 10
B4 | 5.45
B5 | 0.822
B6 | 5.45

Target: SARS-CoV-2 Omicron BA.2.75 spike pseudovirus
Assay: as above
Description: as §1

Binder | pseudovirus neutralization IC50 [µg/mL]
B1 | 0.0928
B2 | 0.504
B3 | > 10
B4 | 3.74
B5 | 0.455
B6 | 3.12

Target: SARS-CoV-2 Omicron BA.5 spike pseudovirus
Assay: as above
Description: as §1

Binder | pseudovirus neutralization IC50 [µg/mL]
B1 | > 10
B2 | 0.803
B3 | 8.23
B4 | 3.31
B5 | 1.6
B6 | 2.77

Target: SARS-CoV-2 Omicron BQ.1.1 spike pseudovirus
Assay: as above
Description: as §1

Binder | pseudovirus neutralization IC50 [µg/mL]
B1 | > 10
B2 | 2.24
B3 | > 10
B4 | 5.91
B5 | 2.49
B6 | 1.55

Target: SARS-CoV-2 Omicron XBB spike pseudovirus
Assay: as above
Description: as §1

Binder | pseudovirus neutralization IC50 [µg/mL]
B1 | 2.43
B2 | 2.6
B3 | > 10
B4 | 4.57
B5 | 2.57
B6 | 3.43

Target: SARS-CoV-2 early D614G spike pseudovirus
Assay: as above
Description: as §1

Binder | pseudovirus neutralization IC50 [µg/mL]
B1 | 0.176
B2 | 2.14
B3 | 0.021
B4 | 0.51
B5 | 0.00823
B6 | 4.44
